Laboratory results: PubChem BioAssay AID504761 (Drosophila RNAi Screening Center, 2011)

Assay: 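Insect host genes that dengue virus relies on to spread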 (primary screen)
Cell system: D.Mel-2 cells from Drosophila
Reagent: long dsRNA against Drosophila genes
Conditions: infection with dengue virus type 2; dose and infection time not stated
Measured: 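Cells stained for dengue envelope protein and imaged; percent of infected cells per well on duplicate plates, ranked by infection, with stained nuclei counted for cell number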
Direction: infection score: higher = more virus-infected cells; cell count: higher = more cells in the well
Rule for the call: 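Very low infection ranking in both replicate wells (chance probability at most 0.065), then a retest showing infection dropped 1.5-fold or more at p below 0.05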
Calls: active = confirmed: knock-down lowers infection; inactive = not picked or not confirmed
The deposit covers about 22,000 reagents; shown is a random part of those with a known target gene and a result. Of all reagents, 116 (0.52%) were called active. 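Calls depend on retest data that are not deposited; infection was ranked per plate without normalising between plates; the unit of the infection score is not given.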 Raw values vary from plate to plate and are shown uncorrected. Entries without a mark were called inactive. Reagents against one gene are numbered here. Names joined by + are all predicted targets of the reagent. Not given: the amount of reagent, the time to read-out.

gene | reagent | infection score, replicate 1 | infection score, replicate 2 | cell count, replicate 1 | cell count, replicate 2
hll (GeneID 34822) | 1 | 18.5 | 13.5 | 6144 | 5788
CG10814 (GeneID 36481) | 1 | 12.7 | 22.2 | 6120 | 5050
Mettl4 + CG14907 | 1 | 2.47 | 1.51 | 6357 | 6573
CG31323 (GeneID 318682) | 1 | 13.1 | 1.89 | 5218 | 6766
Obp56d (GeneID 37266) | 1 | 3.8 | 3.59 | 5871 | 6025
Calx (GeneID 42481) | 1 | 7.58 | 2.93 | 5975 | 5162
Calx (GeneID 42481) | 2 | 2.75 | 2.53 | 5808 | 5608
Calx (GeneID 42481) | 3 | 1.71 | 1.78 | 6538 | 6728
Calx (GeneID 42481) | 4 | 1.68 | 11.3 | 6746 | 3328
Calx (GeneID 42481) | 5 | 2.73 | 3.57 | 6445 | 6311
beta4GalT7 (GeneID 42991) | 1 | 0.7 | 1.4 | 6032 | 6774
RpL28 + snoRNA:Or-CD12 | 1 | 1.3 | 4.62 | 3930 | 3574
dmGlut (GeneID 47253) | 1 | 8.59 | 7.33 | 6296 | 6305
dmGlut (GeneID 47253) | 2 | 0.77 | 1.38 | 6473 | 6237
Ero1L (GeneID 38500) | 1 | 11.7 | 8.68 | 5859 | 5701
CG12680 (GeneID 31427) | 1 | 1.26 | 2.02 | 6250 | 6692
CG16879 (retired record) (GeneID 34827) | 1 | 9.32 | 14.8 | 5947 | 6647
CG16879 (retired record) (GeneID 34827) | 2 | 2.17 | 2.16 | 6141 | 6530
PolG1 (GeneID 34792) | 1 | 1.54 | 1.41 | 6028 | 6746
PolG1 (GeneID 34792) | 2 | 17.9 | – | 3044 | 412
eIF3i (GeneID 33710) | 1 | 5.53 | 8.49 | 2929 | 3355
DUBAI + Tmem18 | 1 | 2.95 | 0.96 | 6331 | 5907
CG42369 (GeneID 33894) | 1 | 3.19 | 4.77 | 6417 | 6039
CG5199 (GeneID 40265) | 1 | 5.24 | 2.84 | 5880 | 5960
Crag (GeneID 31800) | 1 | 3.02 | 2.27 | 6217 | 5724
ema (GeneID 41992) | 1 | 3.07 | 4.54 | 6549 | 6454
hdly (GeneID 42478) | 1 | 1.29 | 1.7 | 6580 | 6836
CG14151 (GeneID 39201) | 1 | 2.25 | 5.83 | 5504 | 6266
dpp (GeneID 33432) | 1 | 16.2 | 13.5 | 6399 | 6448
dpp (GeneID 33432) | 2 | 1.29 | 4.51 | 5757 | 5767
dpp (GeneID 33432) | 3 | 11.7 | 2.13 | 6318 | 6196
dpp (GeneID 33432) | 4 | 7.37 | 1.32 | 5959 | 6834

9 consecutive records already listed, quoted:
gene | reagent | infection score, replicate 1 | infection score, replicate 2 | cell count, replicate 1 | cell count, replicate 2
eIF3i (GeneID 33710) | 1 | 5.53 | 8.49 | 2929 | 3355
DUBAI + Tmem18 | 1 | 2.95 | 0.96 | 6331 | 5907
CG42369 (GeneID 33894) | 1 | 3.19 | 4.77 | 6417 | 6039
CG5199 (GeneID 40265) | 1 | 5.24 | 2.84 | 5880 | 5960
Crag (GeneID 31800) | 1 | 3.02 | 2.27 | 6217 | 5724
ema (GeneID 41992) | 1 | 3.07 | 4.54 | 6549 | 6454
hdly (GeneID 42478) | 1 | 1.29 | 1.7 | 6580 | 6836
CG14151 (GeneID 39201) | 1 | 2.25 | 5.83 | 5504 | 6266
dpp (GeneID 33432) | 1 | 16.2 | 13.5 | 6399 | 6448

Additional results:
gene | reagent | infection score, replicate 1 | infection score, replicate 2 | cell count, replicate 1 | cell count, replicate 2
sinah (GeneID 39885) | 1 | 3.56 | 12.3 | 6851 | 6359
sinah (GeneID 39885) | 2 | 2.74 | 3.15 | 6428 | 5994
eIF3k (GeneID 37475) | 1 | 12.1 | 29 | 6180 | 3718
eIF3k (GeneID 37475) | 2 | 3.79 | 47.6 | 6961 | 5851
Cnx99A + Cnx14D | 1 | 4.32 | – | 7173 | 316
Rrp47 (GeneID 32558) | 1 | 4.89 | 2.54 | 6216 | 6372
Rrp47 (GeneID 32558) | 2 | 5.48 | 5.68 | 6520 | 6641
CG5910 (GeneID 40264) | 1 | 4.88 | 3.06 | 6144 | 6435
brun (GeneID 35325) | 1 | 14.6 | 8.8 | 5986 | 6525
roh (GeneID 246602) | 1 | 0.55 | 0.29 | 5274 | 5222
Mst57Dc (GeneID 43121) | 1 | 4.32 | – | 6669 | 297
CG7707 (GeneID 39923) | 1 | 4.4 | 1.09 | 6365 | 6530
lncRNA:CR32660 (GeneID 3771836) | 1 | 1.14 | 4.51 | 6585 | 931
lncRNA:CR32660 (GeneID 3771836) | 2 | 7.1 | 1.43 | 6299 | 6282
Lsm11 (GeneID 36013) | 1 | 6.25 | 9.48 | 6237 | 7068
djl (GeneID 40839) | 1 | 4.24 | 25.9 | 6340 | 4807
djl (GeneID 40839) | 2 | 13.6 | 7.59 | 4410 | 5574
CG13026 (GeneID 39868) | 1 | 6.08 | 3.36 | 6416 | 6466
CG15099 (GeneID 37176) | 1 | 13.4 | 7.73 | 6585 | 7090
CG13838 (GeneID 42719) | 1 | 5.25 | 10.7 | 1314 | 6798
CG13838 (GeneID 42719) | 2 | 4.42 | 9.67 | 1130 | 6238
CG31038 (GeneID 43535) | 1 | 20.1 | 6.35 | 3471 | 6756
CG31038 (GeneID 43535) | 2 | 10.9 | 6.81 | 4767 | 793
CG31038 (GeneID 43535) | 3 | – | 2.73 | 262 | 3735
CG31038 (GeneID 43535) | 4 | 3.44 | 2.82 | 6533 | 6137
Taf12L (GeneID 33672) | 1 | 4.79 | 4.78 | 6641 | 6656
